{"source": "patent US20120207760A1", "about": "“Compositions and Methods for the Therapy and Diagnosis of Influenza” (THERACLONE SCIENCES, published 2012)", "data": [{"target": "recombinant soluble homotrimeric HA of A/Common magpie/Hong Kong/5052/07 - H5N1 (Influenza A virus A/common magpie/Hong …)", "experiment": "micro-array; captured IgG, V5-tagged trimeric HA", "units": {"Trimeric HA Binding: RLU": "RLU"}, "values": [{"binder": "TCN-557 (5081_A04) (antibody, V domains shown) VH: QVQLVQSGAEVKKPGASVKVSCKASGHTFTGYYIHWVRQAPGQGLEWMGWINPDSGATSSAQNFQGRVTMTGDTSSSTAYMELSRLSFDDTAVYYCARVLFTSPFDFWGEGTLVTVSS VL: QAVVTQEPSLAVSPGGTVTLTCGSSTGAVTRGHYPYWFQQKPGQAPRALIYDSAGNRHSWTPARFSGSLLGGKAALTLSGAQPEDEAEYYCLLSYSGVWVFGGGTKLTVL", "Trimeric HA Binding: RLU": 54900}, {"binder": "TCN-540 (5060_F05) (antibody, V domains shown) VH: QVQLVQSGGGVVQPGRSLRLSCAASGFTFSSYAMHWVRQAPGKGLEWVAIISYDGNDQYYTDSVKGRFTISRDSSKVYLQMHRLRPEDTAVYYCAKEFETSGYFHGSFDYWGQGILVTVSS VL: QSALTQPASVSGSPGQSITISCTGTSSDVGGYNYVSWYQQHPGKAPKLLIYEVTNWPSGVSNRFSGSKSGNTASLTISGLQAEDEADYYCSSYAGSSTWVFGGGTRVTVL", "note": "[TCN-540 (5060_F05), listing 1 of 2 here]", "Trimeric HA Binding: RLU": 1800}, {"binder": "TCN-553 (5261_C18) (antibody, V domains shown) VH: QVQVVQSGTEVKKPGSSVKVSCQTSGGRFMSYAITWVRQAPGQGLEWMGGIVPVFGTANYAQKFQGRVTITTDDSTRTAYMELSSLRSEDTAVYYCGFRYGSGYGFDSWGQGTLVTVSS VL: EIVLTQSPGTLSLSPGERATLSCRASQSVSSSYLAWYQKKPGQAPRLLIYGASTRATGIPDRFTGSGSGTDFTLSISRLEPEDFAVYYCQHFGTSVFTFGGGTKVEIK", "note": "[TCN-553 (5261_C18), listing 1 of 2 here]", "Trimeric HA Binding: RLU": 39200}, {"binder": "TCN-536 (5095_N01) (antibody, V domains shown) VH: QVQLQQWGAGLLKPSETLSLTCAVYGGSFSVSGYYWSWIRQPPGRGLEWIGEISHGGSTNYNPSLKSRVTISVDTTKNQFSLRLSSVTAADTAVYYCARGTDPDTEVYCRVGNCAAFDYWGQGSLVTVSS VL: EIILAQSPGTLSLSPGERATLSCRASQFVSTRSLAWYQQRPGQAPRLLIYGASSRATGIPDRFSGSGSGTDFTLTISRLEPEDFAVYYCQHYGYSPRYAFGQGSKVEIK", "Trimeric HA Binding: RLU": 27}, {"binder": "TCN-552 (5249_I23) (antibody, V domains shown) VH: QVQVVQSGAEVKKPGSSVRVSCQASGGTFMNYAIIWVRRAPGQGLEWMGGIIPVFPTPNYAQMFQGRVTISTDESRSTSFLELTNLRYEDTAVYYCARRIYHGGNSGFDFWGQGTLVTVSS VL: EIVLTQSPATLSLSPGERATLSCRASQSVGNYLAWYQQKPGQAPRLLIYDSSNRAPGIPARFSGSGSGTDFTLTISSLAPEDFAVYYCQQRSKWPPMYSFGHGTKLEIK", "note": "[TCN-552 (5249_I23), listing 1 of 2 here]", "Trimeric HA Binding: RLU": 34600}, {"binder": "TCN-543 (5081_G23) (antibody, V domains shown) VH: QVHLVQSGAEVRKPGDSVKVSCKTSGYTFSTYPVAWVRQVPGQGLEWMGWISTYNGNTNFAQNFQGRVTLTTDTTTNTAYMEVRSLKFDDTAVYYCARVEGSYRDFWNNQNRFDPWGQGTLVTVSS VL: SYVLTQPPSVSVAPGQTARISCGGSNIGGKSVHWYQQKPGQAPVLVVYDDSGRPSGIPERFSGSNSGDTATLTISRVEAGDEADYFCQVWDNFGGVFGTGTKVTVL", "Trimeric HA Binding: RLU": 1070}, {"binder": "TCN-545 (5082_I15) (antibody, V domains shown) VH: QVQLQQWGAGLLKPSETLSLSCAVFGGSFSDYYWTWIRQPPGKGLEWIGEIKHSGRTNYNPSLESRVTISVDTSKNQFSLKLSSVTAADTAIYYCARGTDPDTEGYCRSGSCSAFDFWGQGTLVTVSS VL: EIVLTQSPGTLSLSPGERATLSCRASHFVNYRSLAWYQQTPGQVPRLLIYGASTRATGIPDRFSGSGSGTDFTLTISRLEPEDFAVYFCQQYGGSPRYTFGQGTRLEIK", "Trimeric HA Binding: RLU": 1390}, {"binder": "TCN-546 (5089_L08) (antibody, V domains shown) VH: QVQLQQWGAGLLKPSETLSLTCGVYGGSLSDYYWSWIRQPPGKGLEWIGEINHSGGTNYNPSLKRRVTISVDTSKKQFSLKMNSVTAADTAVYYCARGTDPDTEVYCRAGNCAAFDFWGQGTLVTVSS VL: EIVLTQSPGTLSLSPGERATLSCRASHFVIGRAVAWYQQKPGQAPRLLIYGASSRATGIPDRFSGSGSGTDFTLTISRLETEDFAVFYCQHYGSSPRYAFGQGTKLEIK", "Trimeric HA Binding: RLU": 1920}, {"binder": "TCN-555 (5246_L16) (antibody, V domains shown) VH: QVQLVQSGAEVKRPGSSVKVSCTASGGIFRKNAISWVRQAPGQGLEWMGGIIAVFNTANYAQKFQNRVKITADESGNTAYMELSSLTSDDTAVYYCASHPKYFYGSGSYPDFWGQGTLVTVSS VL: QSALTQPRSVSGSPGQSITISCTGGSSDIGASNSVSWYQQHPGKAPKLVIFDVTERPSGVPHRFSGSKSGNTASLTVSGLQPDDEADYFCCAYGGKYLVVFGGGTKVTVL", "note": "[TCN-555 (5246_L16), listing 1 of 2 here]", "Trimeric HA Binding: RLU": 33600}, {"binder": "TCN-550 (5096_F06) (antibody, V domains shown) VH: QVQLQESGPGLVKPSETLSLTCTVSGASINSHYWSWIRQPPGKGLEWIGYVYYSGSTTYNPSLKSRVTLSVDTSKNQFSLNLSSVTAADTAFYYCARHPYDVLTGSGDWFDPWGQGTLVTVSS VL: SYVLTQAPSVSVAPGQTARITCGGNAIGSKKVHWYQHKAGQAPVLVVYDDTDRPSGIPERFSGSNSWSTATLTINRVEAGDEADYYCQVWDFTIDHVVFGGGTKLTVL", "Trimeric HA Binding: RLU": 993}]}, {"target": "recombinant soluble homotrimeric HA of A/common magpie/Hong Kong/5052/07 (H5N1) (Influenza A virus A/common magpie/Hong …)", "experiment": "not given", "units": {"Trimeric HA Binding: RLU": "RLU"}, "values": [{"binder": "TCN-540 (5060_F05) (antibody, V domains shown) VH: QVQLVQSGGGVVQPGRSLRLSCAASGFTFSSYAMHWVRQAPGKGLEWVAIISYDGNDQYYTDSVKGRFTISRDSSKVYLQMHRLRPEDTAVYYCAKEFETSGYFHGSFDYWGQGILVTVSS VL: QSALTQPASVSGSPGQSITISCTGTSSDVGGYNYVSWYQQHPGKAPKLLIYEVTNWPSGVSNRFSGSKSGNTASLTISGLQAEDEADYYCSSYAGSSTWVFGGGTRVTVL", "note": "[TCN-540 (5060_F05), listing 2 of 2 here]", "Trimeric HA Binding: RLU": 113}, {"binder": "TCN-553 (5261_C18) (antibody, V domains shown) VH: QVQVVQSGTEVKKPGSSVKVSCQTSGGRFMSYAITWVRQAPGQGLEWMGGIVPVFGTANYAQKFQGRVTITTDDSTRTAYMELSSLRSEDTAVYYCGFRYGSGYGFDSWGQGTLVTVSS VL: EIVLTQSPGTLSLSPGERATLSCRASQSVSSSYLAWYQKKPGQAPRLLIYGASTRATGIPDRFTGSGSGTDFTLSISRLEPEDFAVYYCQHFGTSVFTFGGGTKVEIK", "note": "[TCN-553 (5261_C18), listing 2 of 2 here]", "Trimeric HA Binding: RLU": 26000}, {"binder": "TCN-552 (5249_I23) (antibody, V domains shown) VH: QVQVVQSGAEVKKPGSSVRVSCQASGGTFMNYAIIWVRRAPGQGLEWMGGIIPVFPTPNYAQMFQGRVTISTDESRSTSFLELTNLRYEDTAVYYCARRIYHGGNSGFDFWGQGTLVTVSS VL: EIVLTQSPATLSLSPGERATLSCRASQSVGNYLAWYQQKPGQAPRLLIYDSSNRAPGIPARFSGSGSGTDFTLTISSLAPEDFAVYYCQQRSKWPPMYSFGHGTKLEIK", "note": "[TCN-552 (5249_I23), listing 2 of 2 here]", "Trimeric HA Binding: RLU": 42200}, {"binder": "TCN-555 (5246_L16) (antibody, V domains shown) VH: QVQLVQSGAEVKRPGSSVKVSCTASGGIFRKNAISWVRQAPGQGLEWMGGIIAVFNTANYAQKFQNRVKITADESGNTAYMELSSLTSDDTAVYYCASHPKYFYGSGSYPDFWGQGTLVTVSS VL: QSALTQPRSVSGSPGQSITISCTGGSSDIGASNSVSWYQQHPGKAPKLVIFDVTERPSGVPHRFSGSKSGNTASLTVSGLQPDDEADYFCCAYGGKYLVVFGGGTKVTVL", "note": "[TCN-555 (5246_L16), listing 2 of 2 here]", "Trimeric HA Binding: RLU": 16100}, {"binder": "TCN-551 (5243_D01) (antibody, V domains shown) VH: EVQLVQSGSEVKKPGESLKISCKGSGYSFSNYWIGWVRHMPGKGLEWMGIIYPGDSDTRYSPSFQGQVTMSADKSSSTVYLQWSSLKASDTAIYYCARRGGHSFGYGSGGDTHSEFDSWGQGTLVTVSS VL: QSVLTQSPSVSAAPGQKVTISCSGSDSNIGDYFVCWYQHLPGKPPQLLIYENNKRPSGIPDRFSGSKSGTSATLGITGIQTGDEADYYCATWDGSLSAWVFGGGTKLTVL", "Trimeric HA Binding: RLU": 45700}]}]}
